## Potato spindle tuber viroid, loop 6: variant abundance in plants

Reference: Wu et al. 2024, doi:10.1371/journal.ppat.1012142.

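A pool of all variants was put on leaves of three Nicotiana benthamiana plants. Progeny were sequenced from the inoculated region (day 5), the margin of the inoculated leaf (day 10) and systemic leaves (day 12).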

PSTVd intermediate strain, loop 6: wild type UGACCGCGAG, pool pattern UNNNCGNNNG; upper and lower strand joined, each 5' to 3', the first 5 letters being the upper strand, closing pairs included.

Values are reads per thousand in the sample; higher means more abundant, 0 means not found.
Each site shows the three plants.
"Pool" is the share in the plasmid pool used as inoculum, on the same scale.
The inoculated region was read from the minus strand, the other sites from the plus strand.
IR is the inoculated region, LM the leaf margin, Sys the systemic leaves.
Wild type was 20.7 per thousand in the pool and the most common sequence in every sample (inoculated region 195, 198, 203; leaf margin 629, 591, 734; systemic leaves 942, 870, 868).

sequence	pool	IR	LM	Sys
UGUACGGGAG	0.222	0.695 / 0.844 / 1.09	0.248 / 0.252 / 0.0464	0 / 0.0808 / 0.0205
UGUACGGGCG	0.183	0.104 / 0.0719 / 0.111	0 / 0 / 0	0 / 0 / 0
UGUACGGGGG	0.0784	0.0348 / 0.144 / 0.0922	0 / 0 / 0	0 / 0 / 0
UGUACGGGUG	0.196	0.765 / 0.683 / 0.369	0.0828 / 0.151 / 0.139	0 / 0 / 0
UGUACGGUAG	0.222	0.0869 / 0.162 / 0.0184	0 / 0 / 0.0232	0 / 0 / 0
UGUACGGUCG	0.301	0.174 / 0.0539 / 0.129	0 / 0 / 0.0232	0 / 0 / 0
UGUACGGUGG	0.248	0.139 / 0.0539 / 0.0738	0 / 0 / 0	0 / 0 / 0
UGUACGGUUG	0.301	0.0521 / 0.126 / 0.0922	0 / 0 / 0.0232	0 / 0 / 0
UGUACGUAAG	0.196	0.0869 / 0.0898 / 0.0553	0 / 0 / 0	0 / 0 / 0
UGUACGUACG	0.235	0.139 / 0.108 / 0.129	0 / 0 / 0	0 / 0 / 0
UGUACGUAGG	0.235	0.0869 / 0.126 / 0.0738	0.0276 / 0 / 0.0464	0 / 0 / 0
UGUACGUAUG	0.314	0.156 / 0.0719 / 0.0738	0.276 / 0 / 0	0 / 0 / 0
UGUACGUCAG	0.366	0.139 / 0.0359 / 0.0922	0 / 0 / 0	0 / 0 / 0
UGUACGUCCG	0.222	0.0521 / 0.108 / 0.0553	0 / 0 / 0	0 / 0 / 0
UGUACGUCGG	0.301	0.122 / 0.0719 / 0.0553	0 / 0 / 0	0 / 0 / 0
UGUACGUCUG	0.353	0.0869 / 0.0898 / 0.0738	0 / 0 / 0	0 / 0 / 0
UGUACGUGAG	0.170	0.712 / 0.826 / 0.406	0.0552 / 0.0757 / 0.116	0 / 0 / 0
UGUACGUGCG	0.222	0.0521 / 0.0898 / 0.0922	0 / 0 / 0	0 / 0.0202 / 0
UGUACGUGGG	0.131	0.122 / 0.0719 / 0.0553	0.0276 / 0 / 0	0 / 0 / 0
UGUACGUGUG	0.261	0.0521 / 0.0539 / 0.0553	0 / 0 / 0.0232	0 / 0 / 0
UGUACGUUAG	0.588	0.139 / 0.180 / 0.129	0.0276 / 0 / 0.0232	0 / 0 / 0
UGUACGUUCG	0.301	0.104 / 0.0180 / 0.0738	0.0276 / 0 / 0.0232	0 / 0 / 0
UGUACGUUGG	0.261	0.209 / 0.0359 / 0.0922	0 / 0 / 0.0232	0 / 0 / 0
UGUACGUUUG	0.314	0.0869 / 0.0898 / 0.129	0.0552 / 0 / 0	0 / 0 / 0
UGUACUCGAG	0.0131	0.0174 / 0 / 0	0 / 0 / 0	0 / 0 / 0
UGUCCGAAAG	0.170	0.487 / 0.844 / 0.332	0.0552 / 0.0757 / 0.0232	0 / 0 / 0
UGUCCGAACG	0.288	0.0348 / 0.0898 / 0.0553	0 / 0 / 0	0 / 0 / 0
UGUCCGAAGG	0.157	0.0695 / 0.0719 / 0.0922	0.0276 / 0 / 0	0 / 0 / 0
UGUCCGAAUG	0.340	0.0869 / 0.126 / 0.0369	0 / 0 / 0.0464	0 / 0 / 0
UGUCCGACAG	0.196	0.191 / 0.108 / 0.0922	0 / 0 / 0	0 / 0 / 0
UGUCCGACCG	0.196	0.104 / 0.126 / 0.0922	0 / 0 / 0	0 / 0 / 0
UGUCCGACGG	0.261	0.0695 / 0.126 / 0.111	0 / 0 / 0.0464	0 / 0 / 0
UGUCCGACUG	0.405	0.139 / 0.162 / 0.0553	0 / 0 / 0.0232	0.0180 / 0 / 0
UGUCCGAGAG	0.222	0.869 / 0.413 / 0.479	0.0828 / 0.126 / 0.0232	0 / 0 / 0
UGUCCGAGCG	0.183	0.191 / 0.162 / 0.111	0 / 0 / 0.0232	0 / 0 / 0
UGUCCGAGGG	0.170	0.122 / 0.162 / 0.0553	0 / 0 / 0	0 / 0 / 0.0205
UGUCCGAGUG	0.235	0.0521 / 0.180 / 0.129	0 / 0 / 0.0232	0 / 0 / 0
UGUCCGAUAG	0.314	0.156 / 0.162 / 0.111	0 / 0 / 0.162	0 / 0 / 0

A selection of 4 entries from above:

| sequence | pool | IR | LM | Sys |
|---|---|---|---|---|
| UGUCCGAGCG | 0.183 | 0.191 / 0.162 / 0.111 | 0 / 0 / 0.0232 | 0 / 0 / 0 |
| UGUACGUGGG | 0.131 | 0.122 / 0.0719 / 0.0553 | 0.0276 / 0 / 0 | 0 / 0 / 0 |
| UGUCCGAGGG | 0.170 | 0.122 / 0.162 / 0.0553 | 0 / 0 / 0 | 0 / 0 / 0.0205 |
| UGUCCGAAUG | 0.340 | 0.0869 / 0.126 / 0.0369 | 0 / 0 / 0.0464 | 0 / 0 / 0 |

Samples held 36,220 to 57,551 reads, so the smallest values rest on one or two reads.
Sequences that differ at fixed positions probably stem from PCR or sequencing errors, and defective variants can be carried along by functional ones.